# Values from PubChem BioAssay AID504761 (Drosophila RNAi Screening Center, 2011).
# Test: 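Genome-wide fly cell screen for genes dengue virus requires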 (primary screen)
# Cell system: D.Mel-2 cells from Drosophila
# Reagent: long dsRNA against Drosophila genes
# Conditions: infection with dengue virus type 2; dose and infection time not stated
# Measured: 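Cells stained for dengue envelope protein and imaged; percent of infected cells per well on duplicate plates, ranked by infection, with stained nuclei counted for cell number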
# Direction: infection score: higher = more virus-infected cells
# Hit rule: 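Very low infection ranking in both replicate wells (chance probability at most 0.065), then a retest showing infection dropped 1.5-fold or more at p below 0.05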
# Calls: active = confirmed: knock-down lowers infection; inactive = not picked or not confirmed
# In all, the deposit lists about 22,000 reagents; shown is an unselected part of those with a known target gene and a result. In the full data, 116 (0.52%) are marked active. 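Calls depend on retest data that are not deposited; infection was ranked per plate without normalising between plates; the unit of the infection score is not given.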 Entries without a mark were called inactive. Reagents against one gene are numbered here. Names joined by + are all predicted targets of the reagent. Not all columns of the deposit are shown. Not given: the amount of reagent, the time to read-out.
The first 2 records, to show the layout:
gene knocked down,reagent no.,"infection score, replicate 1","infection score, replicate 2"
CG14856,1,5.58,7.91
path,1,3.74,3.43

Main list, from the start:
gene knocked down,reagent no.,"infection score, replicate 1","infection score, replicate 2"
CG14856,1,5.58,7.91
path,1,3.74,3.43
Scsalpha2,1,1.49,6.56
CG17085 (retired record),1,17.6,16.4
CG17085 (retired record),2,1.66 (active),0.75
CG17085 (retired record),3,1.94,12.1
Polr3D,1,7.1,14.7
Polr3D,2,2.94,4.72
CG14130,1,1.13,7.79
bmm,1,5.06,6.58
CG42819 + CG42820,1,9.3,9.26
CG7582,1,,4.41
ed,1,1.1,5.47
ed,2,2.51,9.13
ed,3,1.59,11.2
ed,4,2.4,2.4
Atf6,1,1.98,1.41
Atf6,2,14.4,
Atf6,3,19.8,5.94
Mst57Dc,1,4.32,
LpR2,1,2.95,2.31
LpR2,2,1.68,0.08
LpR2,3,1.79,4.82
LpR2,4,11.5,0.86
Ten-m,1,3.68,18.1
Ten-m,2,4.46,5.08
CG15764,1,8.33,2.26
CG15764,2,2.43,5.91
Gr59d,1,25,2.66
prd1,1,2.35,1.62
Gasp,1,,37.8
CG4995,1,4.13,4.42
CG14431,1,2.81,2.24
CG14431,2,3.86,3.54
CG15650,1,3.37,5.47
cnn,1,1.45,10.8
cnn,2,,1.96
Balat,1,16.7,15
Rrp46,1,8.78,26.1
